Results of unrelated studies side by side (data: NIAID ChemDB).

Common to all: tests in culture; agent: Candida albicans

A number after MIC or MFC names an inhibition level or a share of isolates.

| smiles | strain | conditions | endpoint | method | result |
|---|---|---|---|---|---|
| Cc1c(Cn2ccnc2)c2ccccc2n1Cc1ccc(F)cc1 | CA980001 |  | MIC80 |  | >100 µg/mL |
| Cc1c(/C(=N/OC(=O)c2ccccc2)c2ccccc2)oc2ccccc12 |  |  | MIC |  | 256 µg/mL |
| Fc1ccc(Cn2cc(Cn3ccnc3)c3cc(Br)ccc32)cc1 | CA980001 |  | MIC80 |  | >100 µg/mL |
| CC[C@@H]([C@H](C)O)n1ncn(-c2ccc(N3CCN(c4ccc(OC[C@@H]5CO[C@@](Cn6cncn6)(c6ccc(F)cc6F)C5)cc4)CC3)cc2)c1=O | 373 |  | MIC | broth dilution | 0.25 µg/mL |
| Cc1c(/C(=N/OCc2ccc(Cl)cc2)c2ccc(Cl)cc2)oc2ccccc12 |  |  | MIC |  | >512 µg/mL |
| CCC(C)CC(C)CCCCCCCCC(=O)N[C@H]1C[C@@H](O)[C@H](NCCN)NC(=O)[C@@H]2[C@@H](O)CCN2C(=O)[C@H]([C@H](O)CCN)NC(=O)[C@H]([C@H](O)[C@@H](O)c2ccc(O)cc2)NC(=O)[C@@H]2C[C@@H](O)CN2C(=O)[C@H]([C@@H](C)O)NC1=O | 10 strains (fluconazole- itraconazole-susceptible) |  | MIC50 |  | 0.5 µg/mL |
| S=C=NCCCCCCCN=C=S | 90030 |  | MIC | visual reading | <1 µg/mL |
| COC(=O)c1ccc2nc(-c3ccc(Cl)cc3Cl)[nH]c2c1 |  |  | MIC |  | 50 µg/mL |
| Cc1c(C(=O)O)c(-c2ccc(F)cc2)cn1-c1ccc(Cl)cc1 | 40 strains |  | Mean MIC |  | 26.04 µg/mL |
| COC(=O)c1ccc2nc(-c3ccccc3OC)[nH]c2c1 |  |  | MIC |  | 25 µg/mL |
| C[C@H]1[C@H](O)[C@@H](C)/C=C/C=C/C=C/C=C/C=C/C=C/C=C/[C@H](O[C@@H]2O[C@H](C)[C@@H](O)[C@H](N)[C@@H]2O)C[C@@H]2O[C@](O)(C[C@@H](O)C[C@@H](O)CC[C@H](O)[C@@H](O)C[C@@H](O)CC(=O)O[C@H]1C)C[C@H](O)[C@H]2C(=O)O | 90029 |  | MIC | broth dilution | 0.03 µg/mL |
| CCOC[N+](C)(C)Cc1cc(N=Nc2ccc(C)cc2)ccc1O |  |  | MIC |  | 688 µM |
| Clc1ccc(CSc2ccccc2Cn2ccnc2)c(Cl)c1 |  |  | MIC |  | >100 µg/mL |
| CC(=O)OCCn1c(Cc2ccc(C)cc2)n[nH]c1=O | ATCC16231 |  | MIC |  | >250 µg/mL |
| N=C(N)N1CCN(Cc2cccnc2SCc2ccc(-c3ccccc3)cc2)CC1 | SC5314 CAI |  | MIC50 |  | 20 µg/mL |
| Clc1ccc(Cn2cc(Cn3ccnc3)c3ccccc32)c(Cl)c1 | CA980001 |  | MIC80 |  | 5 µg/mL |
| CCC(C)CC(C)CCCCCCCCC(=O)NC1C[C@H](O)[C@@H](O)NC(=O)[C@@H]2[C@@H](O)[C@@H](C)CN2C(=O)[C@H]([C@H](O)CC(N)=O)NC(=O)[C@H](C(O)[C@H](O)c2ccc(O)cc2)NC(=O)[C@@H]2C[C@@H](O)CN2C(=O)[C@H]([C@@H](C)O)NC1=O | MY1750 |  | MFC |  | 0.125 µg/mL |
| Oc1ccc(CCN=C=S)cc1 | 5108 multidrug-resistant |  | MIC | visual reading | 4 µg/mL |
| Fc1ccc(Cn2cc(Cn3ccnc3)c3ccccc32)cc1 | CA980001 |  | MIC80 |  | 4 µg/mL |
| Clc1ccc(CSc2ccccc2Cn2ccnc2)cc1 |  |  | MIC |  | 6.3 µg/mL |
| Cc1ccc(-n2cc(-c3ccc(Br)cc3)c(C(=O)O)c2C)cc1 | 40 strains |  | Mean MIC |  | 47.92 µg/mL |
| O=c1[nH]nc(-c2ccccc2)n1-c1ccncc1 | ATCC16231 |  | MIC |  | >250 µg/mL |
| CCCCC(c1cn(Cc2ccc(Cl)cc2)c2ccc(Br)cc12)n1ccnc1 | CA980001 |  | MIC80 |  | 45 µg/mL |
| OC(Cn1cncn1)(Cn1cncn1)c1ccc(F)cc1F | TIMM1768 (azole-susceptible) |  | MIC80 |  | 0.25 µg/mL |
| CNn1c(C)n[nH]c1=O | ATCC16231 |  | MIC |  | >250 µg/mL |
| C[C@@H](c1ncncc1F)[C@](O)(Cn1cncn1)c1ccc(F)cc1F |  |  | MIC90 | broth dilution | 0.5 µg/mL |
| CCC(C)CC(C)CCCCCCCCC(=O)N[C@H]1C[C@H](O)[C@@H](O)NC(=O)[C@@H]2[C@@H](O)[C@@H](O)CN2C(=O)[C@H]([C@H](O)CC(N)=O)NC(=O)[C@H](C(O)[C@H](O)c2ccc(O)cc2)NC(=O)[C@@H]2C[C@@H](O)CN2C(=O)[C@H]([C@@H](C)O)NC1=O | MY1208 |  | MFC |  | 0.5 µg/mL |
| O[C@](Cn1cncn1)(Cn1cnc(/C=C/c2ccc(OCC(F)(F)C(F)F)cc2)n1)c1ccc(F)cc1F | 119 isolates |  | MIC50 |  | ≤0.007 µg/mL |
| Cc1ccc(-c2cn(-c3ccc(Cl)cc3)c(C)c2C(=O)O)cc1 | 40 strains |  | EC50 |  | <36.5 µg/mL |
| COC(=O)c1ccc2c(c1)nc(-c1ccc(OCc3ccccc3)cc1)n2Cc1ccccc1 |  |  | MIC |  | >100 µg/mL |
| Cc1ccc(N=Nc2ccc(O)c(C[N+](C)(C)COCCC3CCCCC3)c2)cc1 |  |  | MIC |  | 139 µM |
| O=c1[nH]nc(-c2ccc([N+](=O)[O-])cc2)[nH]1 | ATCC16231 |  | MIC |  | >250 µg/mL |
| Cc1ccccc1CSc1ncccc1CN1CCN(C(=N)N)CC1 | SC5314 CAI |  | MIC50 |  | >100 µg/mL |
| Clc1ccc(C(Cn2ccnc2)OCc2csc3c(Cl)cccc23)c(Cl)c1 | 63 isolates | 48 h | MIC50 | visual reading | 1 µg/mL |
| NS(=O)(=O)c1ccc(NC(=O)N=Nc2c(O)[nH]c3cccc(Cl)c23)cc1 |  |  | MIC |  | >1.56 µg/mL |
| Cc1c(Cn2ccnc2)c2ccccc2n1Cc1ccc(Cl)cc1 | CA980001 |  | MIC80 |  | 1 µg/mL |
| CC(=O)O/N=C(\c1ccc(C)cc1)c1oc2ccccc2c1C |  |  | MIC |  | 128 µg/mL |
| Cc1ccc(-c2cn(-c3ccc(C)cc3)c(C)c2C(=O)O)cc1 | 40 strains |  | Mean MIC |  | 93.79 µg/mL |
| CCC(C)CC(C)CCCCCCCCC(=O)NC1CCCNC(=O)[C@@H]2[C@@H](O)[C@@H](C)CN2C(=O)[C@H]([C@H](O)CC(N)=O)NC(=O)[C@H](CCc2ccc(O)cc2)NC(=O)[C@@H]2C[C@@H](O)CN2C(=O)[C@H]([C@@H](C)O)NC1=O | MY1750 |  | MFC |  | 0.5 µg/mL |
| Cc1ccc(/C(=N\OC(=O)c2ccccc2)c2oc3ccccc3c2C)cc1 |  |  | MIC |  | 64 µg/mL |
| C[C@@H]1[C@H](O)[C@@H](C)/C=C/C=C/C=C/C=C/C=C/C=C/C=C/[C@H](OC2O[C@H](C)[C@@H](O)[C@H](N(CCCN)CCCN)[C@@H]2O)C[C@@H]2O[C@](O)(C[C@@H](O)C[C@@H](O)[C@H](O)CC[C@@H](O)C[C@@H](O)CC(=O)O[C@H]1C)C[C@H](O)[C@H]2C(=O)NCCCCCCN | CAF2-1 |  | MIC |  | 0.3 µM |
| CC(=O)N1CCN(c2ccc(OC[C@H]3CO[C@](Cn4ccnc4)(c4ccc(Cl)cc4Cl)O3)cc2)CC1 |  |  | MIC |  | 12.5 µg/mL |
| Cc1c(/C(=N\O)c2ccc(Cl)cc2)oc2ccccc12 |  |  | MIC |  | 4 µg/mL |
| O=C(N=Nc1c(O)[nH]c2cccc(Cl)c12)Nc1ccc([N+](=O)[O-])cc1 |  |  | MIC |  | >1.56 µg/mL |
| COc1ccc(/C(=N\OC(C)=O)c2oc3ccccc3c2C)cc1 |  |  | MIC |  | 8 µg/mL |
| N=C(N)N1CCN(Cc2cccnc2SCc2ccc(Br)cc2)CC1 | SC5314 CAI |  | MIC50 |  | 75 µg/mL |
| C[C@@H]1[C@H](O)[C@@H](C)/C=C/C=C/C=C/C=C/C=C/C=C/C=C/[C@H](OC2O[C@H](C)[C@@H](O)[C@H](N(CCCN)CCCN)[C@@H]2O)C[C@@H]2O[C@](O)(C[C@@H](O)C[C@@H](O)[C@H](O)CC[C@@H](O)C[C@@H](O)CC(=O)O[C@H]1C)C[C@H](O)[C@H]2C(=O)O | DSY1751 |  | MIC |  | 0.1 µM |
| N=C(N)N1CCN(Cc2cccnc2SCc2cc(F)cc(F)c2)CC1 | SC5314 CAI |  | MIC50 |  | 50 µg/mL |
| CC(=O)N1CCN(c2ccc(OC[C@H]3CO[C@](Cn4ccnc4)(c4ccc(Cl)cc4Cl)O3)cc2)CC1 | FR2 |  | MIC |  | 0.06 µg/mL |
| COc1cc(O)c2c(c1)C(=O)c1c(cc3c(c1O)-c1c(cc(C)c(C(=O)NC(C)C(=O)O)c1O)[C@H](OC1OC(C)C(N(C)C)C(OC4OCC(O)C(O)C4O)C1O)[C@H]3O)C2=O | ATCC 38247 (amphotericin B-resistant) |  | MIC |  | 1.6 µg/mL |
| N=C(N)N1CCN(Cc2cccnc2SCc2ccccc2CS(=O)(=O)c2ccccc2)CC1 | SC5314 CAI |  | MIC50 |  | 12.5 µg/mL |
| Cc1c(C(=O)O)c(-c2ccc(Br)cc2)cn1-c1ccc(F)cc1 | 40 strains |  | EC50 |  | >78.57 µg/mL |
| Cc1c(/C(=N/OCc2ccc(Cl)cc2)c2ccccc2)oc2ccccc12 |  |  | MIC |  | 256 µg/mL |
| CCCn1nc(-c2ccccc2)n(NC)c1=O | ATCC16231 |  | MIC |  | >250 µg/mL |
| O=C(N=Nc1c(O)[nH]c2cc(Cl)ccc12)Nc1ccc(Cl)cc1 |  |  | MIC |  | >1.56 µg/mL |
| C[C@H]1[C@H](O)[C@@H](C)/C=C/C=C/C=C/C=C/C=C/C=C/C=C/[C@H](O[C@@H]2O[C@H](C)[C@@H](O)[C@H](N)[C@@H]2O)C[C@@H]2O[C@](O)(C[C@@H](O)C[C@@H](O)CC[C@H](O)[C@@H](O)C[C@@H](O)CC(=O)O[C@H]1C)C[C@H](O)[C@H]2C(=O)O | ATCC 90028 |  | MIC |  | 2.5 µg/mL |
| COc1ccc(C[C@H](N)C(=O)N[C@H]2[C@@H](O)[C@H](n3cnc4c(N)ncnc43)O[C@@H]2C(=O)O)cc1 | FP-623 |  | MIC |  | 1.6 µg/mL |
| O=C1c2ccccc2C(=O)N1n1c(Cc2ccc(Cl)cc2)n[nH]c1=O | ATCC16231 |  | MIC |  | >250 µg/mL |
| N=C(N)N1CCN(Cc2cccnc2SCc2ccc(C(F)(F)F)cc2)CC1 | SC5314 CAI |  | MIC50 |  | 75 µg/mL |
| O=C(COc1ccc(Br)cc1)N=Nc1c(O)[nH]c2cc(Cl)ccc12 |  |  | MIC |  | >1.56 µg/mL |
| CC1CCC(OC[N+](C)(C)Cc2cc(N=Nc3ccc(Cl)cc3)ccc2O)CC1 |  |  | MIC |  | 256 µM |
| Cc1ccc(-c2cn(-c3ccc(F)cc3)c(C)c2C(=O)O)cc1 | 40 strains |  | Mean MIC |  | 73.33 µg/mL |
| C[N+](C)(COC1CCCC1)Cc1cc(N=Nc2ccc(Cl)cc2)ccc1O |  |  | MIC |  | 146 µM |
| C=CCc1ccc(O)c(OC)c1 | 2643 |  | MIC90 | turbidity | 480 µg/mL |
| Cc1ccc(C)n1-n1c(Cc2ccccc2)n[nH]c1=O | ATCC16231 |  | MIC |  | >250 µg/mL |
| CCCC(c1ccccc1SCc1ccc(Cl)c(Cl)c1)n1ccnc1 |  |  | MIC |  | >100 µg/mL |
| C[C@@H]1[C@H](O)[C@@H](C)/C=C/C=C/C=C/C=C/C=C/C=C/C=C/[C@H](OC2O[C@H](C)[C@@H](O)[C@H](N(CCN)CCN)[C@@H]2O)C[C@@H]2O[C@](O)(C[C@@H](O)C[C@@H](O)[C@H](O)CC[C@@H](O)C[C@@H](O)CC(=O)O[C@H]1C)C[C@H](O)[C@H]2C(=O)O | CAF2-1 |  | MIC |  | 0.1 µM |

5 of the rows above, restated:

smiles | strain | conditions | endpoint | method | result
O=C(N=Nc1c(O)[nH]c2cc(Cl)ccc12)Nc1ccc(Cl)cc1 |  |  | MIC |  | >1.56 µg/mL
Cc1c(/C(=N/OCc2ccc(Cl)cc2)c2ccccc2)oc2ccccc12 |  |  | MIC |  | 256 µg/mL
C[N+](C)(COC1CCCC1)Cc1cc(N=Nc2ccc(Cl)cc2)ccc1O |  |  | MIC |  | 146 µM
Clc1ccc(C(Cn2ccnc2)OCc2csc3c(Cl)cccc23)c(Cl)c1 | 63 isolates | 48 h | MIC50 | visual reading | 1 µg/mL
Cc1c(/C(=N/OCc2ccc(Cl)cc2)c2ccc(Cl)cc2)oc2ccccc12 |  |  | MIC |  | >512 µg/mL

Rows are shuffled and stem from different studies. Blank or dashed fields: not listed here. ECn is the concentration giving n% inhibition of infection, replication or growth.